Read-outs that look alike come from different tables or passages of the source.
How the values were obtained:
[1] = molecular target: class A beta-lactamase SHV-1 (Escherichia coli, UniProt P0AD63); assay: IC50 determination with nitrocefin as reporter substrate, SHV-1; assay type: biochemical, E. coli; details: read-out: IC50 SHV-1, 30 min pre-incubation at 37° C., phosphate buffer pH 7.0, nitrocefin
Protocol: (§1) The IC50 value represents the concentration of inhibitor required to effect a 50% loss of activity of free enzyme. A standard test for the production of beta-lactamase involves use of the chromogenic cephalosporin, nitrocefin.
(§2) Homogeneously purified class A beta-lactamases TEM-1 and SHV-1 from E. coli and class C enzyme P99 from Enterobacter cloaca were employed in the assay.
(§3) All the enzymes and compounds were dissolved in 50 mM phosphate buffer pH 7.0 and all further dilutions were done with the same buffer solution. Enzyme and compound dilutions were pre-incubated for 30 min at 37° C. and in a final volume of 500 μl. Than 10 μl of 5 mM nitrocefin (reporter substrate) was added to the solution and the absorbance at 482 nm was measured during 2 to 5 minutes. The initial rate was calculated for all the different solutions. The […] values were determined as the inhibitor concentration that gave an initial hydrolysis rate of nitrocefin equal to 50% of the hydrolysis rate of nitrocefin in absence of inhibitor.
(§4) Representative compounds of formula (I) were evaluated as inhibitors of beta-lactamases of TEM-1 and SHV-1 (class A, penicillinase) from E. coli and P-99 (class C, cephalosporinase) from Enterobacter cloacae, by relative IC50 analysis using a procedure similar to that described above.

The chains behind the UniProt entries cited, without tags or fusion partners. Residues count along the entry.
UniProt P0AD63, 22-286 limits assumed: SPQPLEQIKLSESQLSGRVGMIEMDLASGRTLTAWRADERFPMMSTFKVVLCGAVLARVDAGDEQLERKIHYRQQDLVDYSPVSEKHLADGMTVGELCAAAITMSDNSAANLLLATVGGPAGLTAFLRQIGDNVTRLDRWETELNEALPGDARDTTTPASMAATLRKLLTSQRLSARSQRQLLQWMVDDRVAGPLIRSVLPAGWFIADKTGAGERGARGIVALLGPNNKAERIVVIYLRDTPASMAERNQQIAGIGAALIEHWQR
UniProt P05364, 21-381 limits assumed: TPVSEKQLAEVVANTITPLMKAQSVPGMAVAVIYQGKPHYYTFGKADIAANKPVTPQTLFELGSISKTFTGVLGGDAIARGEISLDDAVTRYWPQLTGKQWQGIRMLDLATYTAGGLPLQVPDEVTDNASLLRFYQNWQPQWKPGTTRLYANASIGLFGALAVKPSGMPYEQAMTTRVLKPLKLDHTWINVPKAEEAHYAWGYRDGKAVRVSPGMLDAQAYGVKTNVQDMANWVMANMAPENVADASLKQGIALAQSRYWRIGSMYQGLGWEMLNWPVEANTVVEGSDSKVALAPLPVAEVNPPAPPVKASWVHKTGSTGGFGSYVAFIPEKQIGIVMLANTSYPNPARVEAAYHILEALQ
UniProt P62593, 24-286 limits assumed: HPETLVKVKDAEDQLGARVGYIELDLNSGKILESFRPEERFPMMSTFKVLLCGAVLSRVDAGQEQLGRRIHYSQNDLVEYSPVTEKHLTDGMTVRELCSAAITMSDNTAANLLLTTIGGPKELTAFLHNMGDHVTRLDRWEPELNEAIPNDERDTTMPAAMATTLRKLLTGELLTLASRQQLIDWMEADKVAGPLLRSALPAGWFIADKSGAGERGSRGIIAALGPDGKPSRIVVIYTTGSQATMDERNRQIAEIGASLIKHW

[2] = molecular target: class C beta-lactamase P99 (AmpC) (Enterobacter cloacae, UniProt P05364); assay: IC50 determination with nitrocefin as reporter substrate, P99; assay type: biochemical; details: read-out: IC50 P99 (AmpC), 30 min pre-incubation at 37° C., phosphate buffer pH 7.0, nitrocefin
Protocol: as §1, §2, §3, §4

[3] = molecular target: class A beta-lactamase TEM-1 (Escherichia coli, UniProt P62593); assay: IC50 determination with nitrocefin as reporter substrate, TEM-1; details: read-out: IC50 TEM-1, 30 min pre-incubation at 37° C., phosphate buffer pH 7.0, nitrocefin

| SMILES | IC50 ([1]; tested form: Na salt) [µM] | IC50 ([2]; tested form: Na salt) [µM] | IC50 ([3]; tested form: Na salt) [µM] | IC50 ([1]; tested form: sodium salt) [µM] | IC50 ([2]; tested form: sodium salt) [µM] | IC50 ([3]; tested form: sodium salt) [µM] |
| --- | --- | --- | --- | --- | --- | --- |
| CCOC1CCCC2C1=C(C(=O)O)N1C(=O)C(C(C)O)C21 (stereo not drawn) | 2830 | 0.251 | 785 |  |  |  |
| C[C@@H](O)[C@H]1C(=O)N2C(C(=O)O)=C3C(OCCF)CCC[C@@H]3[C@H]12 (stereo partly drawn) |  |  |  | 223 | 0.149 | 7.4 |

Reference: patent publication US20110172200A1, “USE OF INHIBITOR OF BETA-LACTAMASES AND ITS COMBINATION WITH BETA-LACTAM ANTIBIOTICS” (priority 2008, published 2011)
